Experimental data: patent US20070118934A1

The substances below were run against protective antigen (PA) of Bacillus anthracis (Bacillus anthracis) (UniProt P13423) (assay: cell-based or functional assay).

Compared with “CMG2-IgG V1 co-expressed with CMG2-kappa (V1/K) (from UniProt P58335 34-218; P58335 34-232) (Fc fusion)”, “CMG2-IgG V3 co-expressed with CMG2-kappa (V3/K) (from UniProt P58335 34-218; P58335 34-232) (Fc fusion)” is lower in molar ratio of antitoxin to PA at the IC50, assay Jul. 27, 2005 (molar ratio antitoxin:PA): 0.25 for the first, 0.18 for the second.

Going from “CMG2-IgG variant 1 (V1) (from UniProt P58335 34-218) (Fc fusion)” to “CMG2-IgG variant 2a (V2a) (from UniProt P58335 34-232) (Fc fusion)”, the molar ratio of antitoxin to PA at the IC50, assay Jul. 28, 2005 (molar ratio antitoxin:PA) falls from 1.8 to 0.72.

First: CMG2-IgG variant 2b (V2b) (from UniProt P58335 34-218) (Fc fusion)
Second: CMG2-IgG variant 3 (V3) (from UniProt P58335 34-218) (Fc fusion)
The molar ratio of antitoxin to PA at the IC50, assay Jul. 28, 2005 (molar ratio antitoxin:PA) of the first is lower: 0.31 for the first, 0.91 for the second.

“Original CMG2-IgG (amino acids 34-232 of human CMG2 fused to the human IgG1 constant region) (from UniProt P58335 34-232) (Fc fusion)” showed a molar ratio of antitoxin to PA at the IC50, assay Jul. 28, 2005 (molar ratio antitoxin:PA) of 2.

First: CMG2-IgG variant 2b (V2b) (from UniProt P58335 34-218) (Fc fusion)
Second: Original CMG2-IgG (amino acids 34-232 of human CMG2 fused to the human IgG1 constant region) (from UniProt P58335 34-232) (Fc fusion)
The molar ratio of antitoxin to PA at the IC50, assay Jul. 20, 2005 (molar ratio antitoxin:PA) of the first is lower: 0.45 for the first, 2.16 for the second.
